PubChem BioAssay AID624099, ICCB-Longwood – 2012
Purpose: 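Human genes that papillomavirus E2 requires to repress the HPV18 LCR promoter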 (primary screen). Cell system: human C33A cervical carcinoma cells (HPV-negative) stably expressing BPV1 E2 and an HPV18 LCR luciferase reporter. Knock-down reagent: siRNA pool against human genes, 40 nM. Time to read-out: 72 h. Measurement: 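Per-well luciferase luminescence, z-scored on each plate against the plate mean and SD with control wells left out, then averaged across three replicate plates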. Reading the numbers: mean z-score and z-score: higher = stronger reporter signal, weaker E2 silencing. Hit rule: 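Mean z ≥ 2 together with z ≥ 2 in two or more of the three replicates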.
Here is a random part of about 21,000 reagents. In the full data, 497 (2.4%) are marked active. 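Higher z means weaker E2 silencing; only reporter increases were scored, and knock-downs that hurt cell survival may mask genuine repressor factors.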 Entries without a mark were called inactive. Reagents against one gene are numbered here. Reagent sequences are not shown.

PRDM15 showed mean z-score -0.1; z-score, replicate A = -0.45; z-score, replicate B = -0.69; z-score, replicate C = 0.85.
GAPDH gave mean z-score 1.25; z-score, replicate A = 1.24; z-score, replicate B = 1.41; z-score, replicate C = 1.09.
For OR56A4 the deposit lists mean z-score 0.83; z-score, replicate A = 0.43; z-score, replicate B = 0.97; z-score, replicate C = 1.09.
Against LINC01549 the deposit lists mean z-score -0.43; z-score, replicate A = -0.66; z-score, replicate B = -0.23; z-score, replicate C = -0.42.
For TNS2, the entry reads mean z-score -0.78; z-score, replicate A = -0.49; z-score, replicate B = -0.67; z-score, replicate C = -1.18.
With knock-down of NEUROG2, the screen gave mean z-score -1.02; z-score, replicate A = -1.24; z-score, replicate B = -1.23; z-score, replicate C = -0.6.
For MYT1, the entry reads mean z-score 0.27; z-score, replicate A = 0.16; z-score, replicate B = 0.53; z-score, replicate C = 0.13.
After knock-down of KCTD19, the screen gave mean z-score -0.76; z-score, replicate A = -0.89; z-score, replicate B = -0.9; z-score, replicate C = -0.48.
With knock-down of MAP3K2, the record shows mean z-score -0.5; z-score, replicate A = -0.52; z-score, replicate B = -0.16; z-score, replicate C = -0.82.
REL-DT scored mean z-score -1.04; z-score, replicate A = -0.78; z-score, replicate B = -0.89; z-score, replicate C = -1.43.
For UBTD1, the entry reads mean z-score -1.5; z-score, replicate A = -1.23; z-score, replicate B = -1.71; z-score, replicate C = -1.56.
KCTD4 showed mean z-score 2.07 (active); z-score, replicate A = 1.91; z-score, replicate B = 2.05; z-score, replicate C = 2.27.
LOC347512 (retired record) showed mean z-score 1.11; z-score, replicate A = 1; z-score, replicate B = 1.27; z-score, replicate C = 1.07.
Silencing of FAM240C came out at: mean z-score 0.2; z-score, replicate A = 0.04; z-score, replicate B = 0.26; z-score, replicate C = 0.29.
Knock-down of SRPX2 gave: mean z-score -1.23; z-score, replicate A = -1.31; z-score, replicate B = -1.44; z-score, replicate C = -0.92.
Knock-down of GAS6 gave: mean z-score 0.36; z-score, replicate A = 0.78; z-score, replicate B = 0.35; z-score, replicate C = -0.06.
LOC388107 (retired record) scored mean z-score 0.01; z-score, replicate A = 0.18; z-score, replicate B = 0.06; z-score, replicate C = -0.19.
After knock-down of ACAD11, the screen gave mean z-score -0.52; z-score, replicate A = -0.46; z-score, replicate B = -0.54; z-score, replicate C = -0.55.
SLC34A2 showed mean z-score 1.22; z-score, replicate A = 1.51; z-score, replicate B = 0.96; z-score, replicate C = 1.2.
Against RPL17 the deposit lists mean z-score -2.03; z-score, replicate A = -2.1; z-score, replicate B = -2.07; z-score, replicate C = -1.92.
GLB1L3 #1 gave mean z-score -0.73; z-score, replicate A = -0.47; z-score, replicate B = -0.84; z-score, replicate C = -0.87.
GLB1L3 #2 scored mean z-score -0.22; z-score, replicate A = -0.07; z-score, replicate B = -0.08; z-score, replicate C = -0.51.

Active calls (from the list above):
KCTD4: mean z-score = 2.07 (active); z-score, replicate A = 1.91; z-score, replicate B = 2.05; z-score, replicate C = 2.27
